substance,measurement,setting,value
Recombinant CHIKV nsP2 protease,"cleavage of CFP/YFP substrates, SDS-PAGE (FIG. 2F)",CFP-V12-YFP,the CHIKV nsP2 protease cut only Old World substrates
same,"cleavage of CFP/YFP substrates, SDS-PAGE (FIG. 2F)",CFP-V34-YFP,the CHIKV nsP2 protease cut only Old World substrates

# Source: US20210389324
